{"source": "PubChem BioAssay AID504761, Drosophila RNAi Screening Center | 2011", "assay": "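Fly genes whose silencing reduces dengue virus type 2 infection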 (primary screen)", "system": "D.Mel-2 cells from Drosophila", "knock-down reagent": "long dsRNA against Drosophila genes", "challenge": "infection with dengue virus type 2; dose and infection time not stated", "measured": "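Cells stained for dengue envelope protein and imaged; percent of infected cells per well on duplicate plates, ranked by infection, with stained nuclei counted for cell number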", "scale": "infection score: higher = more virus-infected cells", "hit rule": "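Very low infection ranking in both replicate wells (chance probability at most 0.065), then a retest showing infection dropped 1.5-fold or more at p below 0.05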", "calls": "active = confirmed: knock-down lowers infection; inactive = not picked or not confirmed", "note": "The screen tested about 22,000 reagents; shown is a random part of those that have a named target and a result. Of all reagents, 116 (0.52%) are marked active. 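Calls depend on retest data that are not deposited; infection was ranked per plate without normalising between plates; the unit of the infection score is not given.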 Entries without a mark were called inactive. A plus sign joins genes that one reagent is predicted to hit. Further read-outs or replicates are left out here. The record does not give: the amount of reagent, the time to read-out."}
{"predicted target":"CG31775 + CG42586","amplicon":"DRSC23266","infection score, replicate 1":11.9}
{"predicted target":"Es2","amplicon":"DRSC18663","infection score, replicate 1":1.96}
{"predicted target":"Es2","amplicon":"DRSC27829","infection score, replicate 1":16.4}
{"predicted target":"IP3K2","amplicon":"DRSC19500","infection score, replicate 1":16.6}
{"predicted target":"IP3K2","amplicon":"DRSC19747","infection score, replicate 1":3.45}
{"predicted target":"IP3K2","amplicon":"DRSC22614","infection score, replicate 1":1.38}
{"predicted target":"IP3K2","amplicon":"DRSC24796","infection score, replicate 1":6.99}
{"predicted target":"IP3K2","amplicon":"DRSC27191","infection score, replicate 1":27.1}
{"predicted target":"CG42268","amplicon":"DRSC10171","infection score, replicate 1":1.47}
{"predicted target":"CG42268","amplicon":"DRSC10702","infection score, replicate 1":1.15}
{"predicted target":"CG42268","amplicon":"DRSC21797","infection score, replicate 1":4.82}
{"predicted target":"CG42268","amplicon":"DRSC25299","infection score, replicate 1":6.38}
{"predicted target":"CG42268","amplicon":"DRSC29387","infection score, replicate 1":10.7}
{"predicted target":"CG16959","amplicon":"DRSC10230","infection score, replicate 1":17.7}
{"predicted target":"Taldo","amplicon":"DRSC04320","infection score, replicate 1":8.13}
{"predicted target":"Taldo","amplicon":"DRSC27470","infection score, replicate 1":21.3}
{"predicted target":"IKKepsilon","amplicon":"DRSC03550","infection score, replicate 1":2.83}
{"predicted target":"BobA","amplicon":"DRSC09889","infection score, replicate 1":3.14}
{"predicted target":"Uch-L5R","amplicon":"DRSC19825","infection score, replicate 1":3.58}
{"predicted target":"CG12096","amplicon":"DRSC21692","infection score, replicate 1":0.81}
{"predicted target":"CG12096","amplicon":"DRSC27886","infection score, replicate 1":8.54}

3 entries from above, sorted by “infection score, replicate 1”, highest first.
{"predicted target":"IP3K2","amplicon":"DRSC27191","infection score, replicate 1":27.1}
{"predicted target":"IP3K2","amplicon":"DRSC24796","infection score, replicate 1":6.99}
{"predicted target":"CG42268","amplicon":"DRSC10171","infection score, replicate 1":1.47}
